Assay results reported in patent US6664235B1, “Medicaments comprising sialic acid derivatives as active ingredients” (priority 1999, dated 2003).

Legend:
[1] = test system: sialidase of influenza virus A/Singapore/1/57 (H2N2); type: biochemical, human isolate; details: read-out: Inhibitory activity (IC50, μM) Neu5Ac-DSPE as substrate
[2] = test system: sialidase of influenza virus A/duck/36/4/76 (H1N1); type: biochemical, avian isolate; details: read-out: Inhibitory activity (IC50, μM) Neu5Ac-DSPE as substrate
[3] = test system: sialidase of influenza virus A/duck/313/4/78 (H5N3); type: biochemical, avian isolate
[4] = test system: sialidase of influenza virus A/swine/Hokkaido/2/81 (H1N1); type: biochemical, swine isolate; details: read-out: Inhibitory activity (IC50, μM) 4-MU-Neu5Ac as substrate

Measured: IC50

CCCCCCCCCCCCCCCCCC(=O)CC(COC(=O)CCCCCCCCCCCCCCCCC)COP(=O)(O)OCCNCCOC1(C(=O)O)OC(C(O)C(O)CO)C(NC(C)=O)C(O)C1F (centres unmarked) [Compound 9]
62.5 µM: [1] | [2] | [3]; read-out: Inhibitory activity (IC50, μM) 4-MU-Neu5Ac as substrate | [3]; read-out: Inhibitory activity (IC50, μM) Neu5Ac-DSPE as substrate | [4]

Read-outs that look alike come from different tables or passages of the source.
